# Measured values as given in PubChem BioAssay AID1242 (PCMD, 2008).
# The list shows a part of the results, in another mix than the full data. Calls of active or inactive are those of the source.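 Rule for the calls: active = inhibition above 30.3% in the primary screen of four-compound pools, then above 30% when the compound was retested; inconclusive = passed the primary limit but could not be retested; inactive = the rest.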
# Assay: clotrimazole potentiators killing C. albicans biofilm, primary screen, 4-compound mixtures (AID 1242);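 note: compounds exposed to preformed 24 h biofilms for 48 h; 0% = untreated biofilm control and 100% = clotrimazole plus chlorhexidine kill blank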
# Settings: C. albicans biofilm persisters + clotrimazole, fluorescence viability; primary screen in compound mixtures of four per well; at 7.6 µM; hits give high values
# Outline: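 Probe or stimulus – Clotrimazole 50 µg/mL co-treatment · System – C. albicans biofilms · Schedule – 24 h biofilm formation, then 48 h compound exposure, 37 °C · Evaluation – percent inhibition of biofilm viability · Technique – 2-h Alamar Blue fluorescence, 535/590 nm excitation/emission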
row,Compound,inhibition
1,N#Cc1ccc(C(=O)NCC2(N3CCCCC3)CCCCC2)cc1,inactive: 16.7%
2,O=C(OC1CN2CCC1CC2)C1c2ccccc2C=Cc2ccccc21 (stereo not given),inactive: 13.9%
3,COc1ccc(C(=O)NCC2(N3CCOCC3)CCCCC2)cc1OC,inactive: 15.2%
4,COc1cc(OC)cc(C(=O)NCC2(N3CCOCC3)CCCCC2)c1,inactive: 12.9%
5,CCCOc1ccc(C)cc1CN(CCCl)CCCl,inactive: 13.2%
6,CC(C)(C)OC(=O)N1CCC(Nc2ccccc2)CC1,inactive: 7.45%
7,CCN1CCC(Nc2cccc(F)c2)CC1,inactive: 14.8%
8,CN(C)c1ccc(C(=O)NCC2(N3CCCCC3)CCCCC2)cc1,inactive: 7.46%
9,Fc1ccccc1NC1CCN(Cc2ccccc2)CC1,inactive: 9.31%
10,Cc1ccc(OCC(C)C)c(CN(CCCl)CCCl)c1,inactive: 21.5%
11,CCOc1ccc(C)cc1CN(CCCl)CCCl,inactive: 12.8%
12,N#CC1(Nc2ccccc2)CCN(Cc2ccccc2)CC1,inactive: 15%
13,CCOC(=O)N1CCC(Nc2ccc(OC)cc2)CC1,inactive: 7.02%
14,COc1ccc(C(=O)NCC2(N3CCCCC3)CCCCC2)c(OC)c1OC,inactive: 12.7%
15,CC(C)c1ccc(NC2CCN(C(=O)OC(C)(C)C)CC2)cc1,inactive: 1.12%
16,CN(C)c1cccc(C(=O)NCC2(N3CCCCC3)CCCCC2)c1,inactive: 9.33%
17,COc1ccc(CN(CCCl)CCCl)cc1Cl,inactive: 13.6%
18,CN1CCN(CCOC(=O)C(O)(c2ccccc2)c2ccccc2)CC1,inactive: 14%
19,COc1ccc(NC2CCN(C(=O)OC(C)(C)C)CC2)cc1,inactive: -1.73%
20,O=C(NCC1(N2CCCCC2)CCCCC1)c1cccc([N+](=O)[O-])c1,inactive: 7.41%
